Results of unrelated studies side by side (data: NIAID ChemDB).

Shared fields: tests in culture; organism: HIV-1; cells: MT-4; read-out: EC50

An empty or dashed field is not shown. ECn is the concentration giving n% inhibition of infection, replication or growth. Rows are shuffled and stem from different studies.

SMILES,strain or isolate,changes,read by,result
O=C(Cc1ccccn1)NNC(=S)Nc1cccc(Br)c1,IIIB,,cytopathic effect / MTT,>100 µM
COc1cc(Cc2cnc(/N=C3\C(=O)N(CN4CCN(c5cccc(C(F)(F)F)c5)CC4)c4ccc(F)cc43)nc2N)cc(OC)c1OC,IIIB,,cytopathic effect / MTT,62.1 µg/mL
CCOC(=O)c1cn(CC(O)CNc2ccccc2)cc1-c1ccccc1,IIIB,,cytopathic effect / MTT,>45 µM
Cc1cc(C)cc(Cc2c(C(C)C)c(=O)[nH]c(=O)n2COCCOc2ccccc2)c1,A17,K103N + Y181C,MTT,13.3 µM
CCC(C)[C@@H](C(=O)N[C@@H](Cc1ccccc1)[C@H](O)CN(CC1CCCC1)S(=O)(=O)c1ccc(/C=N/O)cc1)N1CCN(Cc2cnccc2C)C1=O,A17 (LPV-resistant),PR-L10F V32I M46I I47V Q68E I84V,cytopathic effect / MTT,0.001 µM
CCc1c(Cc2ccccc2C)n(COCC#Cc2cccc3ccccc23)c(=O)[nH]c1=O,IIIB,WT,MTT,1.8 µM
Fc1ccc(Nc2nnc(Cc3ccccn3)s2)cc1Cl,IIIB,,cytopathic effect / MTT,>100 µM
O=C1CC2CCC1C1C(=O)N(CCCCN3CCN(c4ccccn4)CC3)C(=O)C21,,,MTT,>100 µM
NC(=NCC1CCCO1)c1ccc2nc(Cc3nc4ccc(C(N)=NCC5CCCO5)cc4[nH]3)[nH]c2c1,IIIB,,cytopathic effect / propidium iodide,4.5 µM
Nc1ncnc2c1ncn2[C@H]1CO[C@@H](CCP(=O)(O)O)O1,,,cytopathic effect,47 µg/mL
Cc1cc(/C=C/C#N)cc(C)c1Nc1ccnc(Nc2ccc(C#N)cc2)n1,IIIB,,MTT,0.0013 µM
CCCCCCCCCC(=O)O[C@@]12[C@H](OCOC)[C@@H](C)[C@@]3(O)[C@@H](C=C(CO)C[C@]4(O)C(=O)C(C)=C[C@@H]34)[C@@H]1C2(C)C,IIIB,,MTT,0.0013 µg/mL
CCc1c(Cc2ccccc2C)n(COCC#Cc2ccc(NC(=O)CBr)cc2)c(=O)[nH]c1=O,IIIB,Y181C,MTT,13 µM
COc1cc(Cc2cnc(/N=C3\C(=O)N(CN4CCN(c5ccccc5)CC4)c4ccc(F)cc43)nc2N)cc(OC)c1OC,IIIB,,cytopathic effect / MTT,>84.7 µg/mL
CC(C)(C)NCC(O)CN1C(=O)C2C3CCC(C(=O)C3)C2C1=O,,,MTT,>100 µM
NC(=O)c1[nH]c2ccc(Cl)cc2c1S(=O)(=O)c1ccccc1,,RT-K103N Y181C,cytopathic effect / MTT,8 µM
COc1ccccc1N1CCN(CCCN2C(=O)C3C4CCC(C(=O)C4)C3C2=O)CC1,,,MTT,>100 µM
CC(C)(C)[Si](C)(C)OC[C@H]1O[C@@H](n2ccc(=O)[nH]c2=O)[C@H](O[Si](C)(C)C(C)(C)C)[C@H]1C#N,IIIB,,cytopathic effect,>0.64 µM
Cc1cn([C@H]2O[C@@H](CO)C[C@@H]2F)c(=O)[nH]c1=O,,,RT activity,>100 µM
O=C1CC2CCC1C1C(=O)N(CC(O)CN3CCN(c4ccccn4)CC3)C(=O)C21,,,MTT,>100 µM
CCn1cc(C(=O)O)c(=O)c2cc(F)c(N3CCN(CN4C(=O)/C(=N\c5ncc(Cc6cc(OC)c(OC)c(OC)c6)c(N)n5)c5cc(F)ccc54)CC3)cc21,IIIB,,cytopathic effect / MTT,12.1 µg/mL
CCC(C)[C@@H](C(=O)N[C@@H](Cc1ccccc1)[C@H](O)CN(CC(C)C)S(=O)(=O)c1ccc(/C=N/O)cc1)N1CCN(Cc2cccc(C(C)C)n2)C1=O,,,cytopathic effect / MTT,0.003 µM
CNc1nc(Nc2ccc(C#N)cc2F)nc(Oc2ccc3ccccc3c2Cl)n1,IIIB,,MTT,0.802 µM
CCc1c(Cc2ccccc2C)n(COCC#Cc2ccc(N)cc2)c(=O)[nH]c1=O,IIIB,Y181C,MTT,>39 µM
C=CS(=O)(=O)N1CCCC(NS(=O)(=O)c2c(C(N)=O)[nH]c3ccc(Br)cc23)C1,IIIB,,MTT,>40.7 µM
O=C1CC2CCC1C1C(=O)N(CC(O)CN3CCCCC3)C(=O)C21,,,MTT,>100 µM
COc1cc(Cc2[nH]c(=O)[nH]c(=O)c2C(C)C)cc(OC)c1,IIIB,Efavirenz-resistant (K103R + V179D + P225H),MTT,>100 µM
Nc1ccn([C@H]2CC[C@@H](CO)O2)c(=O)n1,IIIB,,cytopathic effect / XTT,0.013 µg/mL
CC(C)C(NC(=O)OC(C)(C)C)C(=O)O[C@H](CN1C[C@H]2CCCC[C@H]2C[C@H]1C(=O)NC(C)(C)C)[C@H](Cc1ccccc1)NC(=O)[C@H](CC(N)=O)NC(=O)c1ccc2ccccc2n1,IIIB,,cytopathic effect / MTT,3.2 µM
CC(C)c1nc(CN(C)C(=O)N[C@@H](C(=O)NN(Cc2cccc(O)c2)C[C@H](O)[C@H](Cc2ccccc2)NC(=O)OCc2cncs2)C(C)C)cs1,IIIB,,cytopathic effect / MTT,1.37 µM
O=C(O)/C=C\c1ccc(O)c(O)c1/C(=C/c1ccc(O)c(O)c1)C(=O)O,IIIB,,MTT,>6.4 µM
O=C1CC2CCC1C1C(=O)N(CCCN3CCN(c4ncccn4)CC3)C(=O)C21,,,MTT,>100 µM
CCc1c(Cc2ccccc2)n(COCCOc2ccccc2)c(=O)[nH]c1=O,IIIB,,MTT,0.07 µM
CC(C)c1nc(CN(C)C(=O)N[C@@H](C(=O)NN(Cc2ccc(O)cc2)C[C@H](O)[C@H](Cc2ccccc2)NC(=O)OCc2cncs2)C(C)C)cs1,IIIB,,cytopathic effect / MTT,0.04 µM
COc1cc(Cc2cnc(/N=C3\C(=O)N(CN4CCN(Cc5ccccc5)CC4)c4ccc(F)cc43)nc2N)cc(OC)c1OC,IIIB,,cytopathic effect / MTT,>139.3 µg/mL
c1cc2nc(Cc3nc4ccc(C5=N[C@@H]6CCCC[C@@H]6N5)cc4[nH]3)[nH]c2cc1C1=N[C@@H]2CCCC[C@@H]2N1,IIIB,,cytopathic effect / propidium iodide,4.8 µM
CCCc1cc(=O)oc2c3c(c4c(c12)OC(C)(C)C=C4)O[C@H](C)C[C@@H]3O,090 L697661 resistant,,p24,0.185 µM
CCc1c(Cc2cc(C)cc(C)c2)n(COCCOc2ccccc2)c(=O)[nH]c1=O,A17,K103N + Y181C,MTT,6.5 µM
Cc1sc(-c2ccncc2)c(C2=CCC(C)(C)CC2)c1[C@H](OC(C)(C)C)C(=O)O,HXB2,,luminescence,0.012 µM
CC(C)C(NC(=O)OC(C)(C)C)C(=O)O[C@@H](C[C@@H](Cc1ccccc1)C(=O)N[C@H]1c2ccccc2C[C@H]1OC(=O)C(NC(=O)OC(C)(C)C)C(C)C)CN1CCN(Cc2cccnc2)C[C@H]1C(=O)NC(C)(C)C,IIIB,,cytopathic effect / MTT,>10 µM
CC(C)(C)NC(=O)c1ccccc1NCC(O)Cn1c(C(=O)NC(C)(C)C)cc2cc(Cl)ccc21,IIIB,,cytopathic effect / MTT,>66 µM
NC(=O)CC1Nc2ccccc2S(=O)(=O)n2cccc21,IIIB,,MTT,>206 µM
COCc1cccc(CN2CCN([C@H](C(=O)N[C@@H](Cc3ccccc3)[C@H](O)CN(CC(C)C)S(=O)(=O)c3ccc(/C=N/O)cc3)C(C)(C)C)C2=O)n1,A17 (LPV-resistant),PR-L10F V32I M46I I47V Q68E I84V,cytopathic effect / MTT,0.0025 µM
CCCCCCCCCCCCCCCCCCOC1C(OCc2ccccc2)C2COC(O2)C1OCc1ccccc1,,,MTT,0.09 µg/mL
Cc1ccc(Oc2nc(N)nc(Nc3ccc(C#N)cc3F)n2)cc1,IIIB,,MTT,1.078 µM
O=S1(=O)c2ccccc2NC(CO)c2cccn21,IIIB,,MTT,>200 µM
CCc1c(Cc2cc(OC)cc(OC)c2)[nH]c(=O)[nH]c1=O,N119,Y181C,MTT,>100 µM
O=C(Cc1ccccn1)NNC(=S)Nc1cccc(C(F)(F)F)c1,IIIB,,cytopathic effect / MTT,>100 µM
CC(C)NCC(O)CN1C(=O)C2C3CCC(C(=O)C3)C2C1=O,,,MTT,>100 µM
Cc1cn([C@H]2O[C@@H](CO)C[C@H]2O)c(=O)[nH]c1=O,,,RT activity,>100 µM
COc1cc(Cc2cnc(/N=C3\C(=O)N(CN4CCN(c5c(F)cc6c(=O)c(C(=O)O)cn(C7CC7)c6c5OC)CC4C)c4ccc(F)cc43)nc2N)cc(OC)c1OC,IIIB,,cytopathic effect / MTT,25.2 µg/mL
COc1cc(Cc2c(C(C)C)c(=O)[nH]c(=O)n2COCCOc2ccccc2)cc(OC)c1,IIIB,,MTT,0.35 µM
CC(C)Nc1nc(Nc2ccc(C#N)cc2F)nc(Oc2ccc3ccccc3c2Br)n1,IIIB,,MTT,9.49 µM
O=C1CC2CCC1C1C(=O)N(CCCCN3CCN(c4ccccc4)CC3)C(=O)C21,,,MTT,>100 µM
N[C@@H](Cc1ccc(OS(=O)(=O)[O-])cc1)C(=O)O.[Na+],IIIB,,cytopathic effect / MTT,1.22 µg/mL
CCOC(=O)c1cn(CC(O)CNc2ccccc2C(=O)OC)cc1-c1ccccc1,IIIB,,cytopathic effect / MTT,>37 µM
CC1=C[C@@H](OCP(=O)(OCCSC(=O)C(C)(C)C)OCCSC(=O)C(C)(C)C)C[C@H]1n1cnc2c(N)ncnc21,,,XTT,20 µM
c1cc2nc(Cc3nc4ccc(C5=N[C@@H]6CCCC[C@H]6N5)cc4[nH]3)[nH]c2cc1C1=N[C@@H]2CCCC[C@H]2N1,IIIB,,cytopathic effect / propidium iodide,3.9 µM
CCc1c(Cc2cc(C)cc(C)c2)n(COCC#Cc2cccc(O[Si](c3ccccc3)(c3ccccc3)C(C)(C)C)c2)c(=O)[nH]c1=O,IIIB,WT,MTT,0.5 µM
CC(C)CN(C[C@@H](O)[C@H](Cc1ccccc1)NC(=O)[C@H](C(C)C)N1CC(=O)N(Cc2ccccc2)C1=O)S(=O)(=O)c1ccc(/C=N/O)cc1,,,cytopathic effect / MTT,0.001 µM
COCCOCCOCCOCCOCCOCCOCCOCCOCCOCCOCCOCCOCCOCCOCCOCCOCCOCCOCCOCCOCCOCCOCCOCCOCCOCCOCCOCCOCCOCCOCCOCCOCCOCCOCCOCCOCCOCCOCCOCCOCCOCCOCCOCCOC(=O)CCC(=O)O[C@@H]1Cc2ccccc2[C@@H]1NC(=O)[C@H](Cc1ccccc1)C[C@H](O)CN1CCN(Cc2cccnc2)C[C@H]1C(=O)NC(C)(C)C,IIIB,,cytopathic effect / MTT,0.73 µM
O=C(CC1Nc2ccccc2S(=O)(=O)n2cccc21)Nc1ccc(Cl)cc1,IIIB,,MTT,>12.5 µM
Cc1ccccc1N1CCN(CCCN2C(=O)C3C4CCC(C(=O)C4)C3C2=O)CC1,,,MTT,>100 µM
C=CCNc1nc(Nc2ccc(C#N)cc2F)nc(Oc2ccc3ccccc3c2Cl)n1,IIIB,,MTT,4.911 µM

The last 9 rows once more:

CCOC(=O)c1cn(CC(O)CNc2ccccc2C(=O)OC)cc1-c1ccccc1 ; strain or isolate: IIIB ; read by: cytopathic effect / MTT ; result: >37 µM
CC1=C[C@@H](OCP(=O)(OCCSC(=O)C(C)(C)C)OCCSC(=O)C(C)(C)C)C[C@H]1n1cnc2c(N)ncnc21 ; read by: XTT ; result: 20 µM
c1cc2nc(Cc3nc4ccc(C5=N[C@@H]6CCCC[C@H]6N5)cc4[nH]3)[nH]c2cc1C1=N[C@@H]2CCCC[C@H]2N1 ; strain or isolate: IIIB ; read by: cytopathic effect / propidium iodide ; result: 3.9 µM
CCc1c(Cc2cc(C)cc(C)c2)n(COCC#Cc2cccc(O[Si](c3ccccc3)(c3ccccc3)C(C)(C)C)c2)c(=O)[nH]c1=O ; strain or isolate: IIIB ; changes: WT ; read by: MTT ; result: 0.5 µM
CC(C)CN(C[C@@H](O)[C@H](Cc1ccccc1)NC(=O)[C@H](C(C)C)N1CC(=O)N(Cc2ccccc2)C1=O)S(=O)(=O)c1ccc(/C=N/O)cc1 ; read by: cytopathic effect / MTT ; result: 0.001 µM
COCCOCCOCCOCCOCCOCCOCCOCCOCCOCCOCCOCCOCCOCCOCCOCCOCCOCCOCCOCCOCCOCCOCCOCCOCCOCCOCCOCCOCCOCCOCCOCCOCCOCCOCCOCCOCCOCCOCCOCCOCCOCCOCCOCCOC(=O)CCC(=O)O[C@@H]1Cc2ccccc2[C@@H]1NC(=O)[C@H](Cc1ccccc1)C[C@H](O)CN1CCN(Cc2cccnc2)C[C@H]1C(=O)NC(C)(C)C ; strain or isolate: IIIB ; read by: cytopathic effect / MTT ; result: 0.73 µM
O=C(CC1Nc2ccccc2S(=O)(=O)n2cccc21)Nc1ccc(Cl)cc1 ; strain or isolate: IIIB ; read by: MTT ; result: >12.5 µM
Cc1ccccc1N1CCN(CCCN2C(=O)C3C4CCC(C(=O)C4)C3C2=O)CC1 ; read by: MTT ; result: >100 µM
C=CCNc1nc(Nc2ccc(C#N)cc2F)nc(Oc2ccc3ccccc3c2Cl)n1 ; strain or isolate: IIIB ; read by: MTT ; result: 4.911 µM